Anti-infective test results gathered from many reports (values: NIAID ChemDB through PubChem).

Common to all: cytotoxicity tests; cell line: CEM; measure: CC50

Conditions beyond the fields shown may differ between rows.

SMILES | method | value
Cc1ccn2c(C3OCCO3)cnc2c1 | - | >100 µM
N#Cc1ccc(CSCC2(CSCc3ccc(C#N)cc3)NC(=O)NC2=O)cc1 | - | >15 µM
O=C(C1=NS(=O)(=O)c2ccc(Cl)cc2S1)c1ccc2ccccc2c1 | XTT | 170 µM
Cc1cn([C@@H]2O[C@@H]3CN[C@@]4(C(N)=O)CS(=O)(=O)O[C@@]34[C@H]2O[Si](C)(C)C(C)(C)C)c(=O)[nH]c1=O | - | >125 µM
CCCCC(=O)c1ccc2c(c1)oc(=O)n2CCN1CCOCC1 | - | 15 µg/mL
Cc1ccc2nc(Cl)c(/C=C/C(=O)c3ccc4ccccc4c3)cc2c1 | MTS | 22.6 µM
Cc1cc2c(cc1Cl)SC(C(=O)c1ccc(Cl)c(Cl)c1)=NS2(=O)=O | XTT | 143 µM
Cc1ccc2nc(Cl)c(/C=C/C(=O)c3ccc(C)o3)cc2c1 | MTS | 14 µM
Cc1cc(S(=O)(=O)Nc2nnc3c4ccccc4ccn23)c(S)cc1Cl | - | >200 µM
COc1ccc2nc(Cl)c(/C=C/C(=O)c3cc4ccccc4o3)cc2c1 | MTS | 10.8 µM
COCC1=C(C(=O)Nc2ccc(Cl)c(C(=O)OC(C)C)c2)SCCO1 | - | 45 µg/mL
O=C1c2ccc(O)cc2C(=O)N1C12CC3CC(CC(C3)C1)C2 | - | 12.4 µM
Cc1cn([C@H]2C[C@H](F)[C@@H](CO)O2)c(=O)[nH]c1=O | - | 18 µg/mL
CC1=C(C(=O)Nc2ccc(C)c(C(=O)OC(C)C)c2)SCCO1 | - | >100 µg/mL
Cc1ccc2nc(Cl)c(/C=C/C(=O)c3cccc4ccccc34)cc2c1 | MTS | 16.7 µM
O=C(Nc1cccc(-c2nc3cc(C(=O)Nc4ccc(S(=O)(=O)O)c5cc(S(=O)(=O)O)cc(S(=O)(=O)O)c45)ccc3[nH]2)c1)Nc1cccc(-c2nc3cc(C(=O)Nc4ccc(S(=O)(=O)O)c5cc(S(=O)(=O)O)cc(S(=O)(=O)O)c45)ccc3[nH]2)c1 | - | 60.9 µM
CC(=O)Sc1ccccc1C(=O)NCCC(N)=O | XTT | >100 µM
Cc1cc2c(cc1Cl)SC(C(=O)c1cccc([N+](=O)[O-])c1)=NS2(=O)=O | XTT | 183 µM
Cc1cc(Cl)cc(S)c1S(=O)(=O)Nc1nnc2c3ccccc3cnn12 | - | >200 µM
Cc1cn([C@@H]2O[C@@H]3CN[C@@]4(C#N)CS(=O)(=O)O[C@@]34[C@H]2O)c(=O)[nH]c1=O | - | >250 µM
Cc1csc(C(=O)/C=C/c2cc3cc(C)ccc3nc2Cl)c1 | MTS | ≥100 µM
CCCCO[C@]12CS(=O)(=O)O[C@@]13C(CN2)O[C@@H](n1cc(C)c(=O)[nH]c1=O)[C@@H]3O[Si](C)(C)C(C)(C)C | - | 34.8 µM
Cc1ccn2c(C3OCCS3)cnc2c1 | - | 28 µM
Cc1cccc(C)c1NC(=O)c1ccc(N)cc1 | - | 486 µM
Cc1cn([C@@H]2O[C@@H]3CN[C@@]4(OCCO)CS(=O)(=O)O[C@@]34[C@H]2O)c(=O)[nH]c1=O | - | >250 µM
CCC(=O)Oc1ccc(NC(=O)C2=C(C)OCCS2)cc1C(=O)OC(C)C | - | 27 µg/mL
COc1ccc(C(=O)C2=NS(=O)(=O)c3cc(C)c(Cl)cc3S2)cc1 | XTT | >1000 µM
O=C1NC(=O)C(CSCCO)(CSCc2ccccc2)N1 | - | >34 µM
CC1(CO)CCC(Cn2nnc3c(=O)[nH]c(N)nc32)C1(C)C | - | 156 µg/mL
COc1ccc2nc(Cl)c(/C=C/C(=O)c3cc(C)sc3C)cc2c1 | MTS | 1.6 µM
Cc1cn([C@@H]2O[C@H](CO)[C@@H](O)[C@@H]2O)c(=O)n(C)c1=O | - | >500 µg/mL
Cc1cc2c(cc1Cl)SC(C(=O)c1ccccc1)=NS2(=O)=O | XTT | 287.5 µM
COC(=O)Oc1ccc(NC(=O)C2=C(C)OCCS2)cc1C(=O)OC(C)C | - | 18 µg/mL
Cc1ccn2c(C(SCCc3ccccc3)SCCc3ccccc3)cnc2c1 | - | 7.8 µM
Cc1cccc(C)c1N1C(=O)c2ccc(C(=O)O)cc2C1=O | - | 21 µM
CCOC(=O)C1=C(C)NC(=O)NC1c1ccccc1 | - | >5 µM
CCOC(=O)c1cc(NC(=O)C2=C(CC)OCCS2)ccc1Cl | - | 26 µg/mL
O=C(c1cccc(Cl)c1)c1ccc2[nH]c(=O)sc2c1 | - | 6.9 µg/mL
Cc1cn([C@@H]2O[C@@H]3CN[C@@]4(OCC(C)(C)C)CS(=O)(=O)O[C@@]34[C@H]2O)c(=O)[nH]c1=O | - | >250 µM
Cc1cc(Cl)cc2c1S(=O)(=O)N=C(C(=O)c1ccc(Cl)cc1)S2 | XTT | >1000 µM
O=C1NC(=O)C(CSCc2cccc3ccccc23)(CSCc2cccc3ccccc23)N1 | - | >100 µM
O=C(NC12CC3CC(CC(C3)C1)C2)c1ccc([N+](=O)[O-])cc1 | - | 90.7 µM
CC1(CO)CCC(Cn2nnc3c(Cl)nc(N)nc32)C1(C)C | - | 17 µg/mL
O=S(=O)(Nc1nnc2c3ccccc3cnn12)c1ccc(Cl)cc1S | - | >200 µM
Nc1ccc(C(=O)NC23CC4CC(CC(C4)C2)C3)cc1 | - | 73.2 µM
O=C(c1cccc(F)c1)c1ccc2c(c1)oc(=O)n2CCN1CCCCC1 | - | 16 µg/mL
Cc1cccn2c(C3OCCO3)cnc12 | - | ≥100 µM
CC1(CO)CCC(Cn2cnc3c(N)nc(N)nc32)C1(C)C | - | 28 µg/mL
Nc1ccc2c(c1)C(=O)N(C13CC4CC(CC(C4)C1)C3)C2=O | - | 30.4 µM
CCSCC1=C(C(=O)Nc2ccc(Cl)c(C(=O)OC(C)C)c2)SCCO1 | - | 28 µg/mL
Cc1cn([C@H]2C[C@H](F)[C@@H](CO)O2)c(=O)n(CCF)c1=O | - | >500 µg/mL
CC1=C(C(=O)Nc2ccc(Cl)c(C(=O)OCC3CCC3)c2)SCCO1 | - | 20 µg/mL
O=C1NC(=O)C(CSCc2ccc(C(=O)O)cc2)(CSCc2ccc(C(=O)O)cc2)N1 | - | >100 µM
O=C(c1cccc([N+](=O)[O-])c1)c1ccc2[nH]c(=O)oc2c1 | - | 36 µg/mL
CCCC1=C(C(=O)Nc2ccc(Cl)c(C(=O)OC)c2)SCCO1 | - | >100 µg/mL

Repeating the final 6 entries:

| SMILES | method | value |
|---|---|---|
| CCSCC1=C(C(=O)Nc2ccc(Cl)c(C(=O)OC(C)C)c2)SCCO1 | - | 28 µg/mL |
| Cc1cn([C@H]2C[C@H](F)[C@@H](CO)O2)c(=O)n(CCF)c1=O | - | >500 µg/mL |
| CC1=C(C(=O)Nc2ccc(Cl)c(C(=O)OCC3CCC3)c2)SCCO1 | - | 20 µg/mL |
| O=C1NC(=O)C(CSCc2ccc(C(=O)O)cc2)(CSCc2ccc(C(=O)O)cc2)N1 | - | >100 µM |
| O=C(c1cccc([N+](=O)[O-])c1)c1ccc2[nH]c(=O)oc2c1 | - | 36 µg/mL |
| CCCC1=C(C(=O)Nc2ccc(Cl)c(C(=O)OC)c2)SCCO1 | - | >100 µg/mL |

CCn is the concentration with n% toxicity to the cells. Blank or dashed fields: not listed here.